# Patent US4649911A, “Small particle aerosol generator for treatment of respiratory disease including the lungs” (Baylor College of Medicine, priority 1986, dated 1987)
# Test system: influenza
# Settings: human, in vivo
compound,measurement,value
NC(=O)c1ncn([C@@H]2O[C@H](CO)[C@@H](O)[C@H]2O)n1 [ribavirin],effectiveness of ribavirin treatment of influenza,establish the effectiveness
same,safety of the treatment,the treatment is safe
